The target of this assay is T1, Sterol O-acyltransferase 1 (Rattus norvegicus, UniProt O70536).
T1 sequence (O70536 whole entry): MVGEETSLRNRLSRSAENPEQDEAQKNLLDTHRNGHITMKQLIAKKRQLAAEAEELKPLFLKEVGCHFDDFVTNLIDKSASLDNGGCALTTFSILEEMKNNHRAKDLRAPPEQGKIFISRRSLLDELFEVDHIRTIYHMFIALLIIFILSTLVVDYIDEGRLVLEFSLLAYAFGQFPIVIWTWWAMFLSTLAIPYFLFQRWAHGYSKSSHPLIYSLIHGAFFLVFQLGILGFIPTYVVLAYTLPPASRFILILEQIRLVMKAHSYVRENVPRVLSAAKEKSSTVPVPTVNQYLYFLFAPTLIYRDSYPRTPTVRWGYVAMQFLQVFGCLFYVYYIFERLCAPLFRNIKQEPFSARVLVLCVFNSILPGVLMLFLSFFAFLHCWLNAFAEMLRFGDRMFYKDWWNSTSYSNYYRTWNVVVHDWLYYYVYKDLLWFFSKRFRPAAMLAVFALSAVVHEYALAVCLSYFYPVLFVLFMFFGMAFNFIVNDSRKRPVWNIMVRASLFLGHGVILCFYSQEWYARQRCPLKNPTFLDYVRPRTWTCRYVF
The experiment in a line: In vitro inhibition of Acyl coenzyme A:cholesterol acyltransferase in rat hepatic microsomes was measured by using AIV assay. Also on record: species or system Liver.

Our source for the IC50 values is ChEMBL document CHEMBL1128040, “Acyl CoA:cholesterol acyltransferase (ACAT) inhibitors: heterocyclic bioisosteres for the urea group in DuP 128” (Bioorg Med Chem Lett, 1995).

As usually defined, the IC50 is the midpoint of a concentration-inhibition curve. A lower IC50 goes with higher potency.

In turn, `Cc1cc(C)n(CCCCCSc2nc(-c3ccccc3)c(-c3ccccc3)[nH]2)n1` displayed an IC50 of 30 nM.
